One molecule from paper PMC8163077, “SARS-CoV-2 can recruit a heme metabolite to evade antibody immunity” (Science Advances, 2021) can be followed below.

Test [1] has as its target SARS-CoV-2 S1 (residues 1 to 530), wild type (SARS-CoV-2, UniProt P0DTC2). Kind of test: ELISA; direct ELISA; […] (3 ug/ml in PBS) […]. The note with it: both partners purified.
Test [2] has as its target full-length wild-type SARS-CoV-2 spike expressed on HEK293T cells (SARS-CoV-2, UniProt P0DTC2). The test is described as follows: flow cytometry on cells. To be noted: one partner purified.

B1: P008_056 human monoclonal IgG (antibody, V domains shown)
VH: EVQLVESGGGLVKPGGSLRLSCAASGFSFSSYSMNWVRQAPGKGLEWVSSISSNSNYIYYADSMKGRFTISRDNAKNSLYLQMNSLRAEDTAVYYCASNRSPYDSSNYYFDYWGQGTRVTISS
VL: AIRMTQSPSSLSASVGDRVTITCQASQDISNYLNWYQQKPGKAPKLLIYDASNLETGVPSRFSGSGSGTDFTFTISSLQPEDIATYYCQHHDSLPLTFGGGTKVEIK
notes: copies: 2 + 2
For B1, the binding result in test [1] and in test [2] was “binds” throughout.
